Measured values from several laboratories, pooled; numbers as filed in NIAID ChemDB.

Common to all: whole-cell or culture tests; agent: Herpes simplex virus 1; method: plaque count; measure: EC50

An empty or dashed field is not shown. ECn: concentration that inhibits the pathogen or its effect by n%. Lines come from different laboratories, so protocols vary.

| SMILES | strain or isolate | cells | result |
|---|---|---|---|
| CC1(C)OC[C@]2(C)[C@@H](CC[C@@]3(C)[C@H]2CC[C@H]2C[C@@H]4CC23CC[C@@]4(C)O)O1 | - | VERO | >500 µM |
| C[C@@H](N)C(=O)O[C@H]1C[C@H](n2cc(/C=C/Br)c(=O)[nH]c2=O)O[C@@H]1COP1(=O)OCc2ccccc2O1 | KUPKA (TK+) | VERO | 0.24 µg/mL |
| Cc1cn([C@@H]2O[C@H](CO)[C@@H](O)[C@@H]2O)c(=S)[nH]c1=O | TK- | MRC-5 | >365 µM |
| CC1(C)CCC[C@@]2(C)[C@H]1CC[C@H]1C[C@@H]3CC12CC[C@]3(O)CO | - | VERO | >500 µM |
| COC(=O)[C@]1(C)CCC[C@@]2(C)[C@H]1[C@H](O)CC1CC(=O)[C@]3(C)CC[C@]12C3 | F | HeLa | 34.5 µM |
| CCCSc1nsc(-c2ccccc2)c1C#N | F | VERO | >200 µg/mL |
| N#Cc1cn(COCCO)c2ncnc(N)c12 | - | HFF | >320 µM |
| Cc1cccc2c1OP(=O)(OC[C@H]1O[C@@H](n3cc(/C=C/Br)c(=O)[nH]c3=O)C[C@@H]1O)OC2 | KUPKA (TK+) | VERO | 0.58 µg/mL |
| C[C@]12CCC3OC[C@@]3(C)[C@@H]1CC[C@H]1C[C@@H]3CC12CCC3=O | - | VERO | >500 µM |
| O=c1ccn([C@H]2C[C@H](O)[C@@H](CO)O2)c(=S)[nH]1 | TK- | MRC-5 | >412 µM |
| CCCSc1nsc(-c2ccccc2)c1C(=O)O | F | VERO | >500 µg/mL |
| CO[C@H]1C[C@H](O[C@H]2[C@@H](O)C[C@H](O[C@H]3[C@@H](O)C[C@H](O[C@H]4CC[C@@]5(C)[C@H](CC[C@@H]6[C@@H]5CC[C@]5(C)[C@@H](C7=CC(=O)OC7)CC[C@]65O)C4)O[C@@H]3C)O[C@@H]2C)O[C@H](C)[C@H]1O | KOS | VERO | 0.12 µM |
| N#Cc1cn([C@@H]2O[C@H](CO)C[C@H]2O)c2ncnc(N)c12 | - | HFF | 3.4 µM |
| CC(=O)N[C@H]1[C@@H](O[C@@H]2O[C@H](C[C@@H](O)[C@H]3O[C@@H](n4ccc(=O)[nH]c4=O)[C@H](O)[C@@H]3O)[C@H](O)[C@H](O)[C@H]2NC(=O)/C=C/CC(C)C)O[C@H](CO)[C@@H](O)[C@@H]1O | - | BSC-1 | <0.5 µg/mL |
| N#CCSc1nsc(-c2ccccc2)c1C#N | F | VERO | >10 µg/mL |
| NC(=O)c1cn([C@@H]2O[C@H](CO)C[C@H]2O)c2ncnc(N)c12 | - | HFF | 60 µM |
| CO[C@H]1C[C@H](O[C@H]2CC[C@]3(C=O)[C@H]4CC[C@]5(C)[C@@H](C6=CC(=O)OC6)CC[C@]5(O)[C@@H]4CC[C@]3(O)C2)O[C@H](C)[C@H]1O[C@@H]1O[C@H](CO[C@@H]2O[C@H](CO)[C@@H](O)[C@H](O)[C@H]2O)[C@@H](O)[C@H](O)[C@H]1O | 29R | VERO | 0.5 µM |
| CCOP(=O)(Oc1ccc(Cl)cc1)C(=O)Oc1ccccc1 | C42 | VERO | >500 µM |
| O=C(O)C[C@H]1C(=O)O[C@H]2[C@H](OC(=O)c3cc(O)c(O)c(O)c3)[C@@H](OC(=O)c3cc(O)c(O)c4c3[C@H]1[C@H](O)C(=O)O4)[C@H](OC(=O)c1cc(O)c(O)c(O)c1)O[C@@H]2COC(=O)c1cc(O)c(O)c(O)c1 | - | A549 | 20.85 µM |
| Nc1ncnc2c1ccn2COCCO | - | HFF | >100 µM |
| C[C@@]12CC[C@]3(C1)C(CC2=O)C[C@@H](OC(=O)c1ccccc1)[C@H]1[C@](C)(C(=O)O)CCC[C@@]13C | F | HeLa | 0.039 µM |
| O=C(Oc1ccccc1)P(=O)(O)O | C42 | VERO | 500 µM |
| NC(=O)c1cn([C@H]2C=C[C@@H](CO)O2)c2ncnc(N)c12 | - | HFF | >100 µM |
| O=c1[nH]c(=S)n([C@@H]2O[C@H](CO)[C@@H](O)[C@@H]2O)cc1Cl | KOS | RPMI8226 | 13.9 µM |
| O=C(O)P(=O)(O)O | 90155 | SIRC | <100 µM |
| CCCSc1nsc(-c2ccccc2)c1C(N)=O | F | VERO | >300 µg/mL |
| Nc1ncnc2c1ccn2[C@H]1C[C@H](O)[C@@H](CO)O1 | - | HFF | >320 µM |
| Cc1cccc2c1OP(=O)(OC[C@H]1O[C@@H](n3cc(/C=C/Br)c(=O)[nH]c3=O)C[C@@H]1OC(=O)[C@@H](N)Cc1ccccc1)OC2 | B2006 (TK-) | VERO | >128 µg/mL |
| C[C@H]1O[C@@H](O[C@H]2CC[C@@]3(C)[C@H](CC[C@@H]4[C@@H]3C[C@@H](O)[C@]3(C)[C@@H](C5=CC(=O)OC5)CC[C@]43O)C2)C[C@H](O)[C@@H]1O[C@H]1C[C@H](O)[C@H](O[C@H]2C[C@H](O)[C@H](O[C@@H]3C[C@H](CO)[C@@H](O)[C@H](O)[C@H]3O)[C@@H](C)O2)[C@@H](C)O1 | 29R | VERO | 0.44 µM |
| Nc1nc2c(ncn2COCCO)c(=O)[nH]1 | MacIntyre | VERO | 0.61 µM |
| O=c1[nH]c(=O)n([C@H]2C[C@H](O)[C@@H](COP3(=O)OCc4ccccc4O3)O2)cc1/C=C/Br | B2006 (TK-) | VERO | >128 µg/mL |
| C[C@H]1O[C@@H](O[C@H]2[C@@H](O)C[C@H](O[C@H]3CC[C@@]4(C)[C@H](CC[C@@H]5[C@@H]4C[C@@H](O)[C@]4(C)[C@@H](C6=CC(=O)OC6)CC[C@]54O)C3)O[C@@H]2C)C[C@H](O)[C@@H]1O | 29R | VERO | 0.22 µM |
| CC1(C)OC[C@]2(C)[C@@H](CC[C@@]3(C)[C@H]2CC[C@H]2C[C@@H]4CC23CC[C@]4(O)CO)O1 | - | VERO | >500 µM |
| N#Cc1c(N2CCCCC2)nsc1-c1ccccc1 | F | VERO | >25 µg/mL |
| O=c1[nH]c(=O)n([C@@H]2C[C@@H](O)[C@H](CO)O2)cc1/C=C/Br | - | HeLa | 0.2 µM |
| Nc1ncnc2c1c(Br)cn2[C@H]1C[C@H](O)[C@@H](CO)O1 | - | HFF | 8.5 µM |
| O=c1[nH]c(=O)n([C@H]2C[C@@H](CO)[C@H](O)C2)cc1I | - | HeLa | 2.8 µM |
| O=C1OCC2OC(O)C(O)C(O)C2OC(=O)c2cc(O)c(O)c(O)c2-c2c(O)c(O)c3oc(=O)c4c(c(O)c(O)c5oc(=O)c2c3c54)-c2c1cc(O)c(O)c2O | - | A549 | 21.33 µM |
| Nc1ncnc2c1ccn2[C@H]1C=C[C@@H](CO)O1 | - | HFF | >100 µM |
| Cc1cccc2c1OP(=O)(OC[C@H]1O[C@@H](n3cc(/C=C/Br)c(=O)[nH]c3=O)C[C@@H]1OC(=O)[C@@H](C)N)OC2 | KUPKA (TK+) | VERO | 0.39 µg/mL |
| Cc1cn([C@H]2C[C@H](O)[C@@H](CO)O2)c(=O)[nH]c1=O | KOS | MRC-5 | >413 µM |
| NC(=O)c1ncn([C@@H]2O[C@H](CO)[C@@H](O)[C@H]2O)n1 | - | - | 25 µM |
| O=c1[nH]c(=O)n([C@H]2C[C@H](O)[C@@H](COP3(=O)OCc4c(Cl)cccc4O3)O2)cc1/C=C/Br | B2006 (TK-) | VERO | >128 µg/mL |
| NC(=O)c1cn(COC(CO)CO)c2ncnc(N)c12 | - | HFF | >100 µM |
| C[C@@]1(CO)[C@H](O)CC[C@@]2(C)[C@H]1CC[C@H]1C[C@@H]3CC12CC=C3CO | - | - | >500 µM |
| O=c1[nH]c(=S)n([C@@H]2O[C@H](CO)[C@@H](O)[C@@H]2O)cc1I | KOS | RPMI8226 | 18.9 µM |
| N#Cc1c(SCCCBr)nsc1-c1ccccc1 | F | VERO | >25 µg/mL |
| Nc1nc2c(ncn2COCCO)c(=O)[nH]1 | - | HELA TK- | 4.2 µM |
| C[C@H]1O[C@@H](O[C@H]2[C@@H](O)C[C@H](O[C@H]3[C@@H](O)C[C@H](O[C@H]4CC[C@@]5(C)[C@H](CC[C@@H]6[C@@H]5CC[C@]5(C)[C@@H](C7=CC(=O)OC7)CC[C@]65O)C4)O[C@@H]3C)O[C@@H]2C)C[C@H](O)[C@@H]1O | 29R | VERO | 0.32 µM |
| C[C@]1(CO)C2CCC3CC4CC3(CC[C@]4(O)CO)[C@@]2(C)CC[C@H]1O | - | VERO | >500 µM |
| CO[C@H]1[C@@H](O)C[C@H](O[C@H]2[C@@H](O)C[C@H](O[C@H]3[C@@H](O)C[C@H](O[C@H]4CC[C@@]5(C)[C@H](CC[C@@H]6[C@@H]5CC[C@]5(C)[C@@H](C7=CC(=O)OC7)CC[C@]65O)C4)O[C@@H]3C)O[C@@H]2C)O[C@@H]1C | KOS | VERO | 0.14 µM |
| CCC(=O)O[C@H]1C[C@H](n2cc(/C=C/Br)c(=O)[nH]c2=O)O[C@@H]1COP1(=O)OCc2cccc(C)c2O1 | KUPKA (TK+) | VERO | 1.57 µg/mL |
| C[C@@]12CC[C@]3(C1)C(C[C@@H](O)[C@H]1[C@](C)(CO)CCC[C@@]13C)C[C@@H]2O | F | HeLa | 65 µM |
| Cc1cccc2c1OP(=O)(OC[C@H]1O[C@@H](n3cc(/C=C/Br)c(=O)[nH]c3=O)C[C@@H]1OC(=O)[C@H](N)CC(C)C)OC2 | KUPKA (TK+) | VERO | 0.32 µg/mL |
| COC(=O)[C@]1(C)CCC[C@@]2(C)[C@H]1[C@H](OC(=O)c1ccccc1)CC1C[C@H](O)[C@]3(C)CC[C@]12C3 | F | HeLa | 5.1 µM |
| Cc1cccc2c1OP(=O)(OC[C@H]1O[C@@H](n3cc(/C=C/Br)c(=O)[nH]c3=O)C[C@@H]1OC(=O)CN)OC2 | B2006 (TK-) | VERO | >128 µg/mL |
| C[C@@]1(O)[C@H](O)CC[C@@]2(C)[C@H]1CC[C@H]1C[C@@H]3CC12CC[C@]3(O)CSCc1ccccc1 | - | - | >500 µM |

A second listing of 8 rows from above:

SMILES,strain or isolate,cells,result
CC1(C)OC[C@]2(C)[C@@H](CC[C@@]3(C)[C@H]2CC[C@H]2C[C@@H]4CC23CC[C@@]4(C)O)O1,-,VERO,>500 µM
O=C1OCC2OC(O)C(O)C(O)C2OC(=O)c2cc(O)c(O)c(O)c2-c2c(O)c(O)c3oc(=O)c4c(c(O)c(O)c5oc(=O)c2c3c54)-c2c1cc(O)c(O)c2O,-,A549,21.33 µM
CCCSc1nsc(-c2ccccc2)c1C(N)=O,F,VERO,>300 µg/mL
C[C@H]1O[C@@H](O[C@H]2[C@@H](O)C[C@H](O[C@H]3CC[C@@]4(C)[C@H](CC[C@@H]5[C@@H]4C[C@@H](O)[C@]4(C)[C@@H](C6=CC(=O)OC6)CC[C@]54O)C3)O[C@@H]2C)C[C@H](O)[C@@H]1O,29R,VERO,0.22 µM
O=c1[nH]c(=O)n([C@H]2C[C@@H](CO)[C@H](O)C2)cc1I,-,HeLa,2.8 µM
Cc1cn([C@H]2C[C@H](O)[C@@H](CO)O2)c(=O)[nH]c1=O,KOS,MRC-5,>413 µM
O=c1[nH]c(=S)n([C@@H]2O[C@H](CO)[C@@H](O)[C@@H]2O)cc1Cl,KOS,RPMI8226,13.9 µM
O=C(O)C[C@H]1C(=O)O[C@H]2[C@H](OC(=O)c3cc(O)c(O)c(O)c3)[C@@H](OC(=O)c3cc(O)c(O)c4c3[C@H]1[C@H](O)C(=O)O4)[C@H](OC(=O)c1cc(O)c(O)c(O)c1)O[C@@H]2COC(=O)c1cc(O)c(O)c(O)c1,-,A549,20.85 µM